Anti-infective test results gathered from many reports (values: NIAID ChemDB through PubChem).

All rows: tests in culture; species: HIV-1; endpoint: EC50

Lines come from different laboratories, so protocols vary. ECn: concentration that inhibits the pathogen or its effect by n%. An empty or dashed field is not shown.

smiles	strain	setting	changes	method	cells	result
COc1ccc2c(c1)OC[C@@H]1c3cc(O)c(OCc4ccc5ccccc5c4)cc3O[C@]21C	RF	-	-	cytopathic effect / XTT	CEM + CEM-SS	>3.35 µM
C[C@H]1CN(C(=O)c2ccccc2)CCN1C(=O)C(=O)c1c[nH]c2cccc(F)c12	LAI	pseudotyped	-	luciferase / reporter gene	HeLa	0.00138 µM
O=C1CSC(c2c(Cl)cccc2Cl)N1c1ccccn1	IIIB	-	-	cytopathic effect / MTT	MT-4	>14.7 µM
C#Cc1ccc(Nc2nccc(Oc3c(C)cc(-c4cn(CCc5cccs5)nn4)cc3C)n2)cc1	IIIB	-	Y188L	MTT	MT-4	>5.53 µM
CC(C)N1C(=O)c2cccn2S(=O)(=O)c2ccc(Cl)cc21	-	-	-	cytopathic effect / MTT	MT-4	>300 µM
CC1CCn2c(=S)[nH]c3cccc(c32)N1	-	-	-	-	CEM + CEM-SS	44 µM
CN(C)c1nc(Cl)cc(C(C#N)c2c(F)cccc2F)n1	IIIB	-	K103N + Y181C	MTT	MT-4	>80 µM
C#C[C@@]12OC[C@]1(CO)O[C@@H](n1ccc(N)nc1=O)[C@@H]2O	IIIB	-	-	antigen	MT-4	>100 µM
CC(=O)OC[C@H]1O[C@@H](n2cc(C)c(Oc3c(F)c(F)c(F)c(F)c3F)nc2=O)C[C@@H]1OC(C)=O	IIIB Laboratory clade B	-	-	syncytia	C8166	>80 µM
CC(C)CC1CN(C(=O)c2ccccc2)CCN1C(=O)C(=O)c1c[nH]c2cccc(F)c12	LAI	pseudotyped	-	luciferase / reporter gene	HeLa	0.0792 µM
CCN1C(=O)c2cccn2S(=O)(=O)c2ccc(Cl)cc21	-	-	-	cytopathic effect / MTT	MT-4	13 µM
Cc1ccc(CNC(=O)C[C@@]23CC[C@]4(C)[C@H](CC[C@@H]5[C@@]6(C)CC[C@H](OC(=O)[C@H]7C[C@@H](C(=O)O)C7(C)C)C(C)(C)[C@@H]6CC[C@]54C)C2=C(C(C)C)C(=O)C3)cn1	92HT599	-	-	p24 / ELISA	MT-2	<1 µM
COc1ccc(N(CC(=O)NCCCc2ccccc2)S(=O)(=O)c2ccc(Cl)c([N+](=O)[O-])c2)cc1	IIIB	-	-	-	-	37 µM
CC(C)c1ccccc1Sc1c(O)cc(-c2ccc(OCc3ccncc3)cc2)oc1=O	IIIB	-	-	RT activity	H9	0.65 µM
COc1nc(N(C)C)nc(C(=O)c2c(F)cccc2F)c1C	IIIB	-	K103N + Y181C	MTT	MT-4	>20 µM
COc1ccc2c(c1)OC[C@@H]1c3cc(O)c4c(OC)cccc4c3O[C@H]21	RF	-	-	cytopathic effect / XTT	CEM + CEM-SS	>15 µM
C#C[C@@]1(OC(C)=O)[C@@H]([C@@H](C)OC(C)=O)O[C@@H](n2ccc(=O)[nH]c2=O)[C@@H]1OC(C)=O	IIIB	-	-	antigen	MT-4	>100 µM
Nc1nc(=O)n(C2O[C@@H](CO)[C@H](O)C2(F)F)cc1Br	LAI	-	-	RT activity	PBMC	>100 µM
CC(C)C1=C2[C@H]3CC[C@@H]4[C@@]5(C)CC[C@H](OC(=O)[C@H]6C[C@@H](C(=O)O)C6(C)C)C(C)(C)[C@@H]5CC[C@@]4(C)[C@]3(C)CC[C@@]2(CC(=O)NC2(c3ccc(Cl)cc3)CNC2)CC1=O	92HT599	-	-	p24 / ELISA	MT-2	<1 µM
CCCCCCCCCCc1nccn(C(CO)OC(CO)CO)c1=O	LAI	-	-	-	CEM + CEM-SS	>100 µM
Nc1nc(=O)n([C@H]2O[C@@H](CO)C=C2F)cc1F	IIIB	3 d	-	cytopathic effect	MT-2	3.6 µM
CC(C)C1=C2[C@H]3CC[C@@H]4[C@@]5(C)CC[C@H](OC(=O)[C@H]6C[C@@H](C(=O)O)C6(C)C)C(C)(C)[C@@H]5CC[C@@]4(C)[C@]3(C)CC[C@@]2([C@@H](O)CNC(=O)C(C)(C)NC(=O)c2ccc(Cl)cc2OCCN2CCOCC2)CC1=O	92HT599	-	-	p24 / ELISA	MT-2	<1 µM
C=CCN(CC(=O)N[C@H](C(=O)N[C@H](C(=O)OC)C(C)C)[C@@H](C)CC)C(=O)[C@H](Cc1ccccc1)NC(=O)[C@H](C)NC(=O)OC(C)(C)C	LAI	-	-	RT activity	CEM	10 µg/mL
O=c1nc(Oc2c(F)c(F)c(F)c(F)c2F)ccn1[C@H]1C[C@H](O)[C@@H](CO)O1	IIIB Laboratory clade B	-	-	syncytia	C8166	400 µM
COc1ccc2c(c1)OC[C@@H]1c3cc(O)c4c(OCc5ccccc5)cccc4c3O[C@H]21	RF	-	-	cytopathic effect / XTT	CEM + CEM-SS	>51 µM
O=c1ccn([C@@H]2O[C@@H](CO)[C@H](O)C2(F)F)c(=O)[nH]1	LAI	-	-	RT activity	PBMC	>100 µM
C#Cc1ccc(Nc2nccc(Oc3c(C)cc(-c4cn(Cc5ccc(C(=O)OC)cc5)nn4)cc3C)n2)cc1	IIIB	-	Y188L	MTT	MT-4	≥9.09 µM
Cc1c(C(O)c2c(F)cccc2F)nc(N(C)C)[nH]c1=O	IIIB	-	EFV-resistant (K103R V179D P225H)	MTT	C8166	>50 µM
COc1ccc2c(c1)OC[C@@H]1c3cc(OC)c(OCc4ccccc4)cc3O[C@H]21	RF	-	-	cytopathic effect / XTT	CEM + CEM-SS	5.97 µM
CC(=O)OC[C@H]1O[C@@H](n2cc(C)c(-n3cncn3)nc2=O)C[C@@H]1OC(C)=O	IIIB Laboratory clade B	-	-	syncytia	C8166	40 µM
CN1C(=O)c2cccn2S(=O)(=O)c2ccc(Cl)cc21	-	-	-	cytopathic effect / MTT	MT-4	20 µM
CC(C)C1=C2[C@H]3CC[C@@H]4[C@@]5(C)CC[C@H](OC(=O)[C@H]6C[C@@H](C(=O)O)C6(C)C)C(C)(C)[C@@H]5CC[C@@]4(C)[C@]3(C)CC[C@@]2([C@@H](O)CNCC(C)(CO)NC(=O)c2ccc(Cl)cc2)CC1=O	92HT599	-	-	p24 / ELISA	MT-2	<1 µM
O=c1oc2c(c(O)c1C(c1ccccc1)C1CC1)CCCCCC2	-	-	-	-	H9	60 µM
Cc1cn([C@H]2O[C@@H](CO)[C@H](O)C2(F)F)c(=O)[nH]c1=O	LAI	-	-	RT activity	PBMC	>100 µM
CC1CN(C(=O)c2ccccc2)CCN1C(=O)C(=O)c1c[nH]c2cccc(F)c12	LAI	pseudotyped	-	luciferase / reporter gene	HeLa	0.00056 µM
CCOCn1c(Sc2ccccc2)c(CC)c(=O)[nH]c1=O	-	-	-	antigen	CEM	<0.04 µM
CC(C)CC1CN(C(=O)C(=O)c2c[nH]c3cccc(F)c23)CCN1C(=O)c1ccccc1	LAI	pseudotyped	-	luciferase / reporter gene	HeLa	0.303 µM
Cc1c(Cl)nc(N(C)C)nc1C(C#N)c1c(F)cccc1F	IIIB	-	Y181C	MTT	MT-4	>34 µM
COc1ccc([C@H]2Oc3cc(OCc4ccccc4)c(O)cc3[C@@H]2C)c(OC)c1	RF	-	-	cytopathic effect / XTT	CEM + CEM-SS	>51.4 µM
CC(C)C1=C2[C@H]3CC[C@@H]4[C@@]5(C)CC[C@H](OC(=O)[C@H]6C[C@@H](C(=O)O)C6(C)C)C(C)(C)[C@@H]5CC[C@@]4(C)[C@]3(C)CC[C@@]2([C@@H](O)CNCC2(N)CCCCC2)CC1=O	92HT599	-	-	p24 / ELISA	MT-2	<1 µM
CC[C@H](C)[C@H](NC(=O)C(C)N(C(=O)[C@H](Cc1ccccc1)NC(=O)[C@H](C)NC(=O)OC(C)(C)C)C(Cl)CCl)C(=O)N[C@H](C(=O)OC)C(C)C	LAI	-	-	cytopathic effect / MTT	CEM	>100 µg/mL
CC(C)C1CN(C(=O)C(=O)c2c[nH]c3cccc(F)c23)CCN1C(=O)c1ccccc1	LAI	pseudotyped	-	luciferase / reporter gene	HeLa	0.0233 µM
CC(C)C1=C2[C@H]3CC[C@@H]4[C@@]5(C)CC[C@H](OC(=O)[C@H]6C[C@@H](C(=O)O)C6(C)C)C(C)(C)[C@@H]5CC[C@@]4(C)[C@]3(C)CC[C@@]2(CCNCCN2CCCCC2)CC1=O	92HT599	-	-	p24 / ELISA	MT-2	<1 µM
C[C@H](CCC(=O)NCCCCN(CCCNC(=O)CC[C@@H](C)[C@H]1CC[C@H]2[C@@H]3[C@H](OS(=O)(=O)O)C[C@@H]4C[C@H](OS(=O)(=O)O)CC[C@]4(C)[C@H]3C[C@H](OS(=O)(=O)O)[C@]12C)C(=O)CC[C@@H](C)[C@H]1CC[C@H]2[C@@H]3[C@H](OS(=O)(=O)O)C[C@@H]4C[C@H](OS(=O)(=O)O)CC[C@]4(C)[C@H]3C[C@H](OS(=O)(=O)O)[C@]12C)[C@H]1CC[C@H]2[C@@H]3[C@H](OS(=O)(=O)O)C[C@@H]4C[C@H](OS(=O)(=O)O)CC[C@]4(C)[C@H]3C[C@H](OS(=O)(=O)O)[C@]12C	Pseudotyped recombinant replication-defective	-	-	luciferase	U87-CD4-CCR5 + U87	<100 µg/mL
CC(=O)O[C@H]1C[C@]2(C)O[C@]3(COC(=O)C3)[C@@H](OC(=O)c3ccccc3)C[C@]2(C)[C@H]2[C@H](OC(C)=O)CC[C@]3(CO3)[C@]12C	IIIB	-	-	MTT / ELISA	C8166	56.89 µg/mL
C#C[C@]1(OC(C)=O)[C@@H](OC(C)=O)[C@H](n2ccc(N)nc2=O)OC1(COC(C)=O)COC(C)=O	IIIB	-	-	antigen	MT-4	>100 µM
CC(=O)OC[C@H]1O[C@@H](n2ccc(-n3cncn3)nc2=O)C[C@@H]1OC(C)=O	IIIB Laboratory clade B	-	-	syncytia	C8166	400 µM
CN(C)c1ncnc2c1ncn2[C@@H]1O[C@H](CO)C[C@@H]1N=[N+]=[N-]	IIIB	-	-	-	MT-4	>115 µg/mL
C#C[C@@]1(O)[C@@H](CO)O[C@@H](n2ccc(=O)[nH]c2=O)[C@@H]1O	IIIB	-	-	antigen	MT-4	>100 µM
Cc1cc(S(=O)(=O)Nc2nnc3c4ccccc4cnn23)c(S)cc1Cl	4XAZT (AZT-resistant)	-	-	p24	CEM	80 µM
CC(C)(C)NC(=O)[C@@H]1CCCN1C(=O)[C@@H](O)[C@H](Cc1ccccc1)NC(=O)[C@H](CC(N)=O)NC(=O)OCc1ccccc1	C-2	-	-	RT activity	MOLT-4	~1 µM
CC1CN(C(=O)c2ccccc2)CC(C)N1C(=O)C(=O)c1c[nH]c2cccc(F)c12	LAI	pseudotyped	-	luciferase / reporter gene	HeLa	0.0033 µM
CCCCCCCCCCc1nccn(COCCO)c1=O	IIIB	-	-	-	MT-4	>100 µM
[N-]=[N+]=N[C@H]1C[C@@H](CO)O[C@H]1n1cnc2c(NC3CC3)ncnc21	IIIB	-	-	-	MT-4	>125 µg/mL
C#C[C@@]1(OC(C)=O)[C@@H]([C@@H](COC(C)=O)OC(C)=O)O[C@@H](n2ccc(N)nc2=O)[C@@H]1OC(C)=O	IIIB	-	-	antigen	MT-4	>100 µM
CCN1CC(C)Cn2c(=S)[nH]c3cc(Br)cc1c32	-	-	-	-	CEM + CEM-SS	5.18 µM
COc1nc(N(C)C)nc(Cc2c(F)cccc2F)c1C	IIIB	-	K103N + Y181C	MTT	MT-4	>67 µM
CC[C@H](C)[C@H](NC(=O)C(C)N(C(=O)[C@H](Cc1ccccc1)NC(=O)[C@H](C)NC(=O)OC(C)(C)C)C(Br)CBr)C(=O)N[C@H](C(=O)OC)C(C)C	LAI	-	-	cytopathic effect / MTT	CEM	111 µg/mL
CC(C)=CCN1CC(C)Cn2c(=S)[nH]c3cccc1c32	N119(RT-Y181C)	-	RT-Y181C	cytopathic effect / XTT	CEM(SS) + CEM-SS	>27.2 µM
Nc1nc(=O)n([C@H]2O[C@@H](CO)[C@H](O)C2(F)F)cc1Cl	LAI	-	-	RT activity	PBMC	>100 µM
COc1cccc2[nH]cc(C(=O)C(=O)N3CCN(C(=O)c4ccccc4)C[C@@H]3C)c12	LAI	pseudotyped	-	luciferase / reporter gene	HeLa	0.00333 µM
O=c1ccn([C@H]2O[C@@H](CO)[C@H](O)C2(F)F)c(=O)[nH]1	LAI	-	-	RT activity	PBMC	>100 µM
C=CCN(C(=O)[C@H](Cc1ccccc1)NC(=O)[C@H](C)NC(=O)OC(C)(C)C)C(C)C(=O)N[C@H](C(=O)N[C@H](C(=O)OC)C(C)C)[C@@H](C)CC	LAI	-	-	RT activity	CEM	60 µg/mL
O=C1Nc2cc(Cl)ccc2S(=O)(=O)n2cccc21	-	-	-	cytopathic effect / MTT	MT-4	35 µM
COc1ccc2c(c1)N(S(=O)(=O)c1ccc(C)cc1)C[C@@H]1c3cc(O)c(OCc4ccccc4)cc3O[C@H]21	RF	-	-	cytopathic effect / XTT	CEM + CEM-SS	>80 µM
COc1ccc(/C=C2\CCc3c2nc2ccccc2c3C(=O)OC(C)C(=O)NC(N)=O)cc1OC	-	-	-	β-galactosidase / GFP / reporter gene	HEK 293	1 µM
O=c1[nH]cnc2c1ncn2[C@H]1O[C@@H](CO)[C@H](O)C1(F)F	LAI	-	-	RT activity	PBMC	>100 µM
CC(=O)O[C@H]1C[C@]2(C)[C@H]3[C@H](OC(=O)c4ccccc4)CC[C@]4(CO4)[C@]3(C)[C@@H](OC(C)=O)C[C@]2(C)O[C@]12COC(=O)C2	IIIB	-	-	MTT / ELISA	C8166	48.24 µg/mL
COc1ccc2c(c1)O[C@@H]1c3ccc(OC)cc3OC[C@H]21	RF	-	-	cytopathic effect / XTT	CEM + CEM-SS	>25 µM
Nc1nc(=O)n([C@H]2O[C@@H](CO)[C@H](O)C2(F)F)cc1F	LAI	-	-	RT activity	PBMC	>100 µM
C[C@@H]1CN(C(=O)c2ccccc2)CCN1C(=O)C(=O)c1c[nH]c2cccc(F)c12	LAI	pseudotyped	-	luciferase / reporter gene	HeLa	<0.00016 µM
C#C[C@@]1(O)[C@@H](CO)O[C@@H](n2ccc(N)nc2=O)[C@@H]1O	IIIB	-	-	antigen	MT-4	>100 µM